A mixed list of measured activities; the numbers were collected in NIAID ChemDB.

Common to all: tests in culture; species: Punta Toro virus

a–b is a range or a potency band. Lines come from different laboratories, so protocols vary. ECn is the concentration giving n% inhibition of infection, replication or growth.

{"compound": "CC1(CO)CCC(Cn2nnc3c(Cl)nc(N)nc32)C1(C)C", "read-out": "EC50", "method": "cytopathic effect", "cells": "VERO", "result": ">100 µg/mL"}
{"compound": "CC(Sc1ncnc2c1cnn2COCC(O)CO)C(N)=O", "read-out": "EC50", "method": "cytopathic effect", "cells": "VERO", "result": ">400 µg/mL"}
{"compound": "Nc1ncnc2c1ncn2[C@@H]1O[C@H](C=NO)[C@@H](O)[C@H]1O", "read-out": "EC50", "method": "cytopathic effect", "cells": "VERO", "result": ">0.4 µg/mL"}
{"compound": "S=c1[nH]n2c(-c3cn(-c4ccccc4)nc3-c3ccccc3)nnc2s1", "read-out": "EC50", "method": "cytopathic effect", "cells": "VERO", "result": ">80 µg/mL"}
{"compound": "CC1(C)[C@@H](CCO)C[C@H]1n1cnc2c(=O)[nH]cnc21", "read-out": "EC50", "method": "cytopathic effect", "cells": "VERO", "result": ">400 µg/mL"}
{"compound": "O=c1[nH]c(=S)cnn1[C@@H]1O[C@H](CO)C(O)C1O", "read-out": "EC50", "method": "cytopathic effect", "strain": "Adames", "cells": "VERO", "result": "16.5 µg/mL"}
{"compound": "OCCCCn1cc(Cn2ncc3c(NCc4ccccc4)ncnc32)nn1", "read-out": "EC50", "cells": "VERO", "result": ">400 µg/mL"}
{"compound": "CCc1nc(CC(=O)NN=C(C)C)nn1CC", "read-out": "MIC", "result": ">80 µg/mL"}
{"compound": "CC(Sc1ncnc2c1cnn2COCCO)C(N)=O", "read-out": "EC50", "method": "cytopathic effect", "cells": "VERO", "result": ">400 µg/mL"}
{"compound": "CC1(C)[C@@H](CCO)C[C@H]1n1nnc2c(N)ncnc21", "read-out": "EC50", "method": "cytopathic effect", "cells": "VERO", "result": ">100 µg/mL"}
{"compound": "CC1(CO)CCC(Cn2cnc3c(=O)[nH]cnc32)C1(C)C", "read-out": "EC50", "method": "cytopathic effect", "cells": "VERO", "result": ">200 µg/mL"}
{"compound": "CCON=C[C@H]1O[C@@H](n2cnc3c(N)ncnc32)[C@H](O)[C@@H]1O", "read-out": "EC50", "method": "cytopathic effect", "cells": "VERO", "result": ">100 µg/mL"}
{"compound": "CCc1nc(-n2c(-c3ccccc3)nc3ccc(Br)cc3c2=O)nc(N)c1-c1ccc(Cl)cc1", "read-out": "EC50", "method": "cytopathic effect", "cells": "E6SM", "result": ">80 µg/mL"}
{"compound": "CCn1nc(-c2ccc(Cn3ccc4ccccc43)cc2)nc1C", "read-out": "MIC", "result": ">80 µg/mL"}
{"compound": "CC1(CO)CCC(Cn2cnc3c(Cl)nc(N)nc32)C1(C)C", "read-out": "EC50", "method": "cytopathic effect", "cells": "VERO", "result": ">200 µg/mL"}
{"compound": "COC(=O)[C@]1(C)CCC[C@]2(C)c3ccc4[nH]c(C(F)(F)F)nc4c3CCC12", "read-out": "EC50", "method": "plaque count", "cells": "VERO", "result": ">4 µg/mL"}
{"compound": "CC1(CO)CCC(Cn2cnc3c(=O)[nH]c(N)nc32)C1(C)C", "read-out": "EC50", "method": "cytopathic effect", "cells": "VERO", "result": ">400 µg/mL"}
{"compound": "O=c1[nH]cnc2c1ncn2C1C[C@H](CO)[C@@H](CO)C1", "read-out": "EC50", "cells": "VERO", "result": ">100 µg/mL"}
{"compound": "CC(=O)OC[C@H]1O[C@@H](n2ncc(=S)[nH]c2=S)C(OC(C)=O)C1OC(C)=O", "read-out": "EC50", "method": "cytopathic effect", "strain": "Adames", "cells": "VERO", "result": "69.1 µg/mL"}
{"compound": "Nc1nc(-n2c(-c3ccccc3)nc3ccc(Br)cc3c2=O)nnc1-c1cccc(Cl)c1Cl", "read-out": "EC50", "method": "cytopathic effect", "cells": "E6SM", "result": ">16 µg/mL"}
{"compound": "c1ccc(-c2nn3c(-c4cn(-c5ccccc5)nc4-c4ccccc4)nnc3s2)cc1", "read-out": "EC50", "method": "cytopathic effect", "cells": "VERO", "result": ">16 µg/mL"}
{"compound": "CC1(C)[C@@H](CCO)C[C@H]1n1nnc2c(=O)[nH]c(N)nc21", "read-out": "EC50", "method": "cytopathic effect", "cells": "VERO", "result": ">400 µg/mL"}
{"compound": "COc1cc(Cc2cnc(-n3c(-c4ccccc4)nc4ccc(Br)cc4c3=O)nc2N)cc(OC)c1OC", "read-out": "EC50", "method": "cytopathic effect", "cells": "E6SM", "result": ">80 µg/mL"}
{"compound": "Nn1c(SCC(=O)O)nnc1-c1cn(-c2ccccc2)nc1-c1ccccc1", "read-out": "EC50", "method": "cytopathic effect", "cells": "VERO", "result": ">80 µg/mL"}
{"compound": "CCn1nc(CC(=O)NN=C(C)C)nc1C", "read-out": "MIC", "result": ">80 µg/mL"}
{"compound": "CC(=O)OC[C@H]1O[C@@H](n2ncc(=O)[nH]c2=S)C(OC(C)=O)C1OC(C)=O", "read-out": "EC50", "method": "cytopathic effect", "strain": "Adames", "cells": "VERO", "result": "6.5 µg/mL"}
{"compound": "CC1(CO)CCC(Cn2nnc3c(N)ncnc32)C1(C)C", "read-out": "EC50", "method": "cytopathic effect", "cells": "VERO", "result": ">40 µg/mL"}
{"compound": "CNc1ncnc2c1cnn2Cc1cn(CCCCO)nn1", "read-out": "EC50", "cells": "VERO", "result": ">400 µg/mL"}
{"compound": "COc1ccc(-n2c(Cc3nc4n(n3)CCCC4)n[nH]c2=S)cc1", "read-out": "MIC", "result": ">400 µg/mL"}
{"compound": "COC(=O)[C@]1(C)CCC[C@]2(C)c3ccc4[nH]cnc4c3CCC12", "read-out": "EC50", "method": "plaque count", "cells": "VERO", "result": ">4 µg/mL"}
{"compound": "O=c1cnn([C@@H]2O[C@H](COP(=O)(O)O)[C@@H](O)[C@H]2O)c(=O)[nH]1", "read-out": "EC50", "method": "cytopathic effect", "strain": "Adames", "cells": "VERO", "result": "1.82 µg/mL"}
{"compound": "O=c1[nH]cnc2c1cnn2Cc1cn(CCCCO)nn1", "read-out": "EC50", "cells": "VERO", "result": ">400 µg/mL"}
{"compound": "CC(C)CS[C@H]1C[C@@H](n2cnc3c(N)ncnc32)[C@H](O)[C@@H]1O", "read-out": "EC50", "method": "cytopathic effect", "cells": "HeLa", "result": ">80 µg/mL"}
{"compound": "CC(=O)OC[C@H]1O[C@@H](n2ncc(=S)[nH]c2=O)C(OC(C)=O)C1OC(C)=O", "read-out": "EC50", "method": "cytopathic effect", "strain": "Adames", "cells": "VERO", "result": "17.4 µg/mL"}
{"compound": "O=c1[nH]n2c(-c3cn(-c4ccccc4)nc3-c3ccccc3)nnc2sc1=O", "read-out": "EC50", "method": "cytopathic effect", "cells": "VERO", "result": ">80 µg/mL"}
{"compound": "Cc1nc(Cc2n[nH]c(=S)n2-c2ccccc2)nn1C", "read-out": "MIC", "result": ">80 µg/mL"}
{"compound": "CCC(Sc1ncnc2c1cnn2CCCCO)C(N)=O", "read-out": "EC50", "method": "cytopathic effect", "cells": "VERO", "result": ">400 µg/mL"}
{"compound": "O=c1cnn([C@@H]2O[C@H](CO)[C@@H](O)[C@H]2O)c(=O)[nH]1", "read-out": "EC50", "method": "cytopathic effect", "strain": "Adames", "cells": "VERO", "result": "0.68 µg/mL"}
{"compound": "O=C(Nn1c(-c2cn(-c3ccccc3)nc2-c2ccccc2)n[nH]c1=S)c1ccccc1", "read-out": "EC50", "method": "cytopathic effect", "cells": "VERO", "result": ">16 µg/mL"}
{"compound": "COC(=O)[C@]1(C)CCC[C@]2(C)c3ccc4nc(-c5ccccc5)c(-c5ccccc5)nc4c3CCC12", "read-out": "EC50", "method": "plaque count", "cells": "VERO", "result": ">4 µg/mL"}
{"compound": "N#CC1=CSc2nnc(-c3cn(-c4ccccc4)nc3-c3ccccc3)n2N=C1N", "read-out": "EC50", "method": "cytopathic effect", "cells": "VERO", "result": ">16 µg/mL"}
{"compound": "O=c1ccn([C@@H]2C[C@H](CO)C[C@H]2CO)c(=O)[nH]1", "read-out": "EC50", "cells": "VERO", "result": ">100 µg/mL"}
{"compound": "N=C(N)c1ncn([C@@H]2O[C@H](CO)[C@@H](O)[C@H]2O)n1", "read-out": "EC50", "result": "1–100 µM"}
{"compound": "CC1(CO)CCC(Cn2nnc3c(Cl)ncnc32)C1(C)C", "read-out": "EC50", "method": "cytopathic effect", "cells": "VERO", "result": ">40 µg/mL"}
{"compound": "O=c1[nH]c(=O)n([C@@H]2C[C@H](CO)C[C@H]2CO)cc1I", "read-out": "EC50", "cells": "VERO", "result": ">100 µg/mL"}

Repeating the first 5 entries:

CC1(CO)CCC(Cn2nnc3c(Cl)nc(N)nc32)C1(C)C ; read-out: EC50 ; method: cytopathic effect ; cells: VERO ; result: >100 µg/mL
CC(Sc1ncnc2c1cnn2COCC(O)CO)C(N)=O ; read-out: EC50 ; method: cytopathic effect ; cells: VERO ; result: >400 µg/mL
Nc1ncnc2c1ncn2[C@@H]1O[C@H](C=NO)[C@@H](O)[C@H]1O ; read-out: EC50 ; method: cytopathic effect ; cells: VERO ; result: >0.4 µg/mL
S=c1[nH]n2c(-c3cn(-c4ccccc4)nc3-c3ccccc3)nnc2s1 ; read-out: EC50 ; method: cytopathic effect ; cells: VERO ; result: >80 µg/mL
CC1(C)[C@@H](CCO)C[C@H]1n1cnc2c(=O)[nH]cnc21 ; read-out: EC50 ; method: cytopathic effect ; cells: VERO ; result: >400 µg/mL